Measurements reported in PubChem BioAssay AID1224833 (University of Georgia, 2016).
Assay: 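Human genes whose knock-down alters rotavirus replication in monkey cells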 (primary screen). Cell system: monkey MA104 kidney cells. Reagents: siRNA pool against human genes, 50 nM. Duration: 48 h knock-down before infection; read 24 h after infection. Challenge: infection with rotavirus strain RV3 two days after transfection; infectious dose for this stage not given. Measurement: 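Rotavirus antigen per well by fluorescent immunoassay, normalised to non-targeting control wells on each plate and given as a standard z-score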. Scale: z-score vs non-targeting control: higher = more rotavirus replication than with non-targeting control. Active means: In these data the active calls have z-score vs non-targeting control at about -1 or lower, or at about 1 or higher. Calls: active = z-score beyond 1 either way; inactive = z-score within 1 of zero.
This is a random part of about 12,000 deposited reagents. About 5,600 of them (46%) were called active. 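Active calls cover z-scores past 1 in both directions, so they include lowered as well as raised rotavirus replication.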

| gene | z-score vs non-targeting control | call |
| --- | --- | --- |
| ZNF513 (zinc finger protein 513) | -0.548 | inactive |
| PPP2R5C (protein phosphatase 2 regulatory subunit B'gamma) | 1.18 | active |
| IRF2 (interferon regulatory factor 2) | -0.636 | inactive |
| CLEC1B (C-type lectin domain family 1 member B) | 0.793 | inactive |
| AHNAK (AHNAK nucleoprotein) | -0.748 | inactive |
| TBC1D15 (TBC1 domain family member 15) | 1.38 | active |
| DNMT3B (DNA methyltransferase 3 beta) | -0.782 | inactive |
| TBC1D22B (TBC1 domain family member 22B) | 0.0038 | inactive |
| FAF2 (Fas associated factor family member 2) | 0.461 | inactive |
| PSENEN (presenilin enhancer, gamma-secretase subunit) | 0.974 | inactive |
| HOXC8 (homeobox C8) | 0.528 | inactive |
| HNF4G (hepatocyte nuclear factor 4 gamma) | 0.808 | inactive |
| SRP14 (signal recognition particle 14) | 0.328 | inactive |
| SLC27A1 | 1.18 | active |
| LSR (lipolysis stimulated lipoprotein receptor) | -1.06 | active |
| GALNTL5 (polypeptide N-acetylgalactosaminyltransferase like 5) | -1.46 | active |
| CHD3 (chromodomain helicase DNA binding protein 3) | -1.67 | active |
| TAP2 (transporter 2, ATP binding cassette subfamily B member) | -0.595 | inactive |
| DHRS3 (dehydrogenase/reductase 3) | 1.86 | active |
| PYDC1 (pyrin domain containing 1) | -1.74 | active |
| ALDH9A1 (aldehyde dehydrogenase 9 family member A1) | -1.49 | active |
| LZTS2 (leucine zipper tumor suppressor 2) | -0.856 | inactive |
| POLI (DNA polymerase iota) | -1.27 | active |
| GUCA2B (guanylate cyclase activator 2B) | 0.814 | inactive |
| SERTM1 (serine rich and transmembrane domain containing 1) | 1.25 | active |
| COL16A1 (collagen type XVI alpha 1 chain) | -3.17 | active |
| LY6G6F (lymphocyte antigen 6 family member G6F) | -0.929 | inactive |
| CCNL1 (cyclin L1) | 0.543 | inactive |
| GPD1 (glycerol-3-phosphate dehydrogenase 1) | -2.81 | active |
| CHAMP1 (chromosome alignment maintaining phosphoprotein 1) | -2.52 | active |

Single entries from the list.
Entry for TAP2 (transporter 2, ATP binding cassette subfamily B member) in “z-score vs non-targeting control”: -0.595
TBC1D15 (TBC1 domain family member 15), z-score vs non-targeting control: 1.38
Under “z-score vs non-targeting control”, LY6G6F (lymphocyte antigen 6 family member G6F) reads -0.929

Additional records:
| gene | z-score vs non-targeting control | call |
| --- | --- | --- |
| TMSB15A (thymosin beta 15A) | -0.829 | inactive |
| TNRC6A (trinucleotide repeat containing adaptor 6A) | -1.21 | active |
| LRMDA (leucine rich melanocyte differentiation associated) | -0.938 | inactive |
| MIGA2 (mitoguardin 2) | 1.37 | active |
| TMEM120A (transmembrane protein 120A) | 0.153 | inactive |
| ROPN1 (rhophilin associated tail protein 1) | -2.33 | active |
| CCL2 (C-C motif chemokine ligand 2) | -1.03 | active |
| KLHL14 (kelch like family member 14) | -0.234 | inactive |
| VCX3A (variable charge X-linked 3A) | -1.4 | active |
| DYNLT4 (dynein light chain Tctex-type 4) | -1.37 | active |
| HARS2 (histidyl-tRNA synthetase 2, mitochondrial) | -1.38 | active |
| HS6ST1 (heparan sulfate 6-O-sulfotransferase 1) | -0.54 | inactive |
| MT1X (metallothionein 1X) | 0.891 | inactive |
| CSE1L (chromosome segregation 1 like) | -1.78 | active |
| KRT37 (keratin 37) | 0.624 | inactive |
| IGSF21 (immunoglobin superfamily member 21) | -1.63 | active |
| MTREX (Mtr4 exosome RNA helicase) | 1.34 | active |
| STAB1 (stabilin 1) | -0.728 | inactive |
| ADAMTSL3 (ADAMTS like 3) | 0.483 | inactive |
| CD47 (CD47 molecule) | 0.985 | inactive |
| SFMBT1 (Scm like with four mbt domains 1) | 1.03 | active |
| JMJD6 | 0.65 | inactive |
| CD5L (CD5 molecule like) | -1.24 | active |
| STMN3 (stathmin 3) | -0.452 | inactive |
| ZAR1 (zygote arrest 1) | -1.08 | active |
| FANCD2 (FA complementation group D2) | 2.42 | active |
| BEND3 (BEN domain containing 3) | -0.332 | inactive |
| CFP (complement factor properdin) | 0.329 | inactive |
| TMED10 (transmembrane p24 trafficking protein 10) | -2.81 | active |
| LINC02897 (long independently transcribed non-coding RNA 2897) | -0.506 | inactive |
| ENG (endoglin) | -0.809 | inactive |
| LSM5 | -1.13 | active |
| OR8D2 (olfactory receptor family 8 subfamily D member 2) | -0.206 | inactive |
| OR8B3 (olfactory receptor family 8 subfamily B member 3) | -0.262 | inactive |
| DAZ4 (deleted in azoospermia 4) | 0.914 | inactive |
| MORF4 (mortality factor 4 (pseudogene)) | -1.18 | active |
| SF3B3 (splicing factor 3b subunit 3) | -0.211 | inactive |
| GNA15 (G protein subunit alpha 15) | 0.865 | inactive |
| FNDC4 (fibronectin type III domain containing 4) | 0.232 | inactive |
| OR6X1 (olfactory receptor family 6 subfamily X member 1) | 0.528 | inactive |
| GBP1 (guanylate binding protein 1) | -0.677 | inactive |
| SUPT4H1 (SPT4 homolog, DSIF elongation factor subunit) | -0.809 | inactive |
| PTGDR (prostaglandin D2 receptor) | -0.964 | inactive |
| GRAP (GRB2 related adaptor protein) | 0.5 | inactive |
| KIAA1755 | -2.78 | active |
